## Percent effect of library compounds

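Phenotypic screen: M. tuberculosis growth, glucose 7H9 medium, 3 days; the read-out is not stated. Compounds at 50 µM. The record gives no direction; compounds that gave an IC50 in retests scored well above the rest, so higher reads as more growth inhibition. Of about 69,000 compounds tested this way, about 760 (1.1%) reached 50% or more in at least one test.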

Results are given as percent effect.
How 0% and 100% were set is not recorded. Most values in the screen are low, and negative values occur.
This is part of a subset picked to be rich in strong results.
Two or more numbers in one place are separate tests of the same structure; such repeats can differ widely.

For CCC1CN(CCCNS(C)(=O)=O)c2ccccc2O1 (stereo unspecified) the result was 13.12% & 0.3696%.
For O=C(c1cn[nH]c1)N1CCC2(CCCN(Cc3ccc(F)c(F)c3)C2)C1 (stereo unspecified) the result was 12.7%.
For Cn1cnc(S(=O)(=O)NCCCN2CCCC2=O)c1Cl the result was -36.55% & -5.286%.
For Cc1[nH]ncc1C(=O)N1CCOC(c2cccs2)C1 (stereo unspecified) the result was -20.38%.
For Cc1nc(COc2cccc(C#N)c2)no1 the result was 15.41%.
For CNC(=O)NC(=O)CSC(C)c1ccccc1F (stereo unspecified) the result was -17.51%.
For CN(C)Cc1ccnc(NS(=O)(=O)CCc2ccccc2)c1 the result was -9.328%.
For CN1CCOC[C@H]1c1nc(-c2cccnc2)c[nH]1 the result was 61.91% & 17.59%.
For COc1ccc(C[C@H]2CN(C(=O)c3ccc(C)nc3)CC[C@@H]2OC)cc1.O=C(O)C(F)(F)F the result was 16.34%.
For FC(F)(F)Oc1cccc(CNCc2ccc(-n3cncn3)nc2)c1 the result was 21.24%.
For CCC(C#N)NC(=O)c1ccc(Oc2cccnc2)cc1 (stereo unspecified) the result was -4.825%.
For CC(=O)c1c(C)nn(CC(=O)Nc2ccc(F)cc2)c1C the result was -2.261% & -45.92%.
For COc1ccc(C[C@H]2CN(c3cc(OC)ncn3)CC[C@H]2OC)cc1.O=C(O)C(F)(F)F the result was 28.98% & 24.29%.
For CCOc1nn(CC)cc1-c1nnc(SCC)n1C the result was -3.258% & -13.16%.
For O=c1c2ccccc2cnn1Cc1cncn1C1CC1 the result was -5.649% & -7.001%.
For CC(C)Cc1cc(C(=O)NC(C)C)[nH]n1 the result was 10.85%.
For COC(=O)c1cccc(C(=O)NCc2ccco2)n1 the result was -5.805%.
For CCc1ocnc1C(=O)N1CCC2(CC1)OCC(C)O2 (stereo unspecified) the result was 10.13% & 8.645%.
For O=C(O)C(F)(F)F.O=C1COC2(CCN(c3ncccn3)CC2)CN1 the result was 14.17%.
For Cc1nn(C)c2c(=O)n(C)c(NCC3CCCO3)nc12 (stereo unspecified) the result was -2.254% & 12.07%.
For COc1cccc(NC(C(N)=O)c2ccc(Br)cc2)c1 (stereo unspecified) the result was 3.175% & 12.71%.
For Cc1cccc(NC(=O)c2csc(NCC(C)C)n2)n1 the result was 1.944%.
For NC(=O)CN(Cc1ccc(Br)cc1)C(=O)c1ccncc1 the result was -1.928%.
For COc1ccc(C2SCC(=O)N2c2ncc(C)s2)cc1 (stereo unspecified) the result was 35.81% & 40.39%.
For Cc1cc(CN2CCCC2c2noc(C3CC3)n2)c2ccccc2n1 (stereo unspecified) the result was 13.51%.
For Clc1ccc(CNc2ccc(Cl)cn2)cc1 the result was 19.32%.
For COCCn1ccc(NC(=O)Nc2cccc(C#N)c2)n1 the result was 6.651%.
For CN1CCCCC1c1ncc2c(n1)CCN(Cc1ccc(F)cc1)C2 (stereo unspecified) the result was 41.44%.
For CCn1ncc(NC(=O)c2cc(C3CC3)nc3c2c(C)nn3C)c1C the result was -13.24%.

For reference, 3 entries once more:

| compound | percent effect |
|---|---|
| `CCc1ocnc1C(=O)N1CCC2(CC1)OCC(C)O2` (stereo unspecified) | 10.13 & 8.645 |
| `O=C(c1cn[nH]c1)N1CCC2(CCCN(Cc3ccc(F)c(F)c3)C2)C1` (stereo unspecified) | 12.7 |
| `Cn1cnc(S(=O)(=O)NCCCN2CCCC2=O)c1Cl` | -36.55 & -5.286 |

From ChEMBL document CHEMBL3988442, “University of Dundee, Small-Polar-MMV Screening Library” (2021).